Reference: patent US10786484B2, “Mono- or di-substituted indole derivatives as dengue viral replication inhibitors” (Janssen Pharmaceuticals, Inc., priority 2015, dated 2020)

Tested on: DENV-2 16681 strain labeled with eGFP
Assay: DENV-2 antiviral assay (eGFP fluorescence read-out in Vero cells)
Format: cell-based, Dengue virus
Details: SI=CC50/EC50, DENV-2 antiviral assay
Procedure: The antiviral activity of all the compounds of the invention was tested against the DENV-2 16681 strain which was labeled with enhanced green fluorescent protein (eGPF). The culture medium consists of minimal essential medium supplemented with 2% of heat-inactivated fetal calf serum, 0.04% gentamycin (50 mg/mL) and 2 mM of L-glutamine. Vero cells, obtained from ECACC, were suspended in culture medium and 25 μL was added to 384-well plates (2500 cells/well), which already contain the antiviral compounds. Typically, these plates contain a 5-fold serial dilution of 9 dilution steps of the test compound at 200 times the final concentration in 100% DMSO (200 nL). […] Finally, each plate contains wells which are assigned as virus controls (containing cells and virus in the absence of compound), cell controls (containing cells in the absence of virus and compound) and medium controls (containing medium in the absence of cells, virus and compounds). To the wells assigned as medium control, 25 μL of culture medium was added instead of Vero cells. Once the cells were added to the plates, the plates were incubated for 30 minutes at room temperature to allow the cells to distribute evenly within the wells. Next, the plates were incubated in a fully humidified incubator (37° C., 5% CO2) until the next day. Then, DENV-2 strain 16681, labeled with eGFP, was added at a multiplicity of infection (MOI) of 0.5. Therefore, 15 μL of virus suspension was added to all the wells containing test compound and to the wells assigned as virus control. In parallel, 15 μL of culture medium was added to the medium and cell controls. Next, the plates were incubated for 3 days in a fully humidified incubator (37° C., 5% CO2). At the day of the read out, the eGFP fluorescence was measured using an automated fluorescence microscope at 488 nm (blue laser). Using an in-house LIMS system, inhibition dose response curves for each compound were calculated and the half maximal effective concentration (EC50) was determined. Therefore, the percent inhibition (I) for every test concentration is calculated using the following formula: I=100*([…])/(SVC−SCC); ST, SCC and SVC are the amount of eGFP signal in the test compound, cell control and virus control wells, respectively. The EC50 represents the concentration of a compound at which the virus replication is inhibited with 50%, as measured by a 50% reduction of the eGFP fluorescent intensity compared to the virus control. The EC50 is calculated using linear interpolation (Table 1).

Structure (SMILES) | SI
COc1cc(NC(C(=O)c2c[nH]c3cc(F)c(F)cc23)c2ccc(F)cc2OCCO)cc(S(C)(=O)=O)c1 (racemic) [Compound 5, 1-(5,6-difluoro-1H-indol-3-yl)-2-(4-fluoro-2-(2-hydroxyethoxy)phenyl)-2-((3-methoxy-5-(methylsulfonyl)phenyl)-amino)ethanone] | 6760
COc1cc(NC(C(=O)c2c[nH]c3c(F)cc(C)cc23)c2ccc(F)cc2OCCO)cc(S(C)(=O)=O)c1 (single isomer, unassigned) [Compound 8B, 2-(4-fluoro-2-(2-hydroxyethoxy)phenyl)-1-(7-fluoro-5-methyl-1H-indol-3-yl)-2-((3-methoxy-5-(methylsulfonyl)phenyl)amino)ethanone] | 170
COc1cc(NC(C(=O)c2c[nH]c3cc(F)c(C)cc23)c2ccc(F)cc2OCCO)cc(S(C)(=O)=O)c1 (single isomer, unassigned) [Compound 7B, 2-(4-fluoro-2-(2-hydroxyethoxy)phenyl)-1-(6-fluoro-5-methyl-1H-indol-3-yl)-2-((3-methoxy-5-(methylsulfonyl)phenyl)amino)ethanone] | 224
COc1cc(NC(C(=O)c2c[nH]c3cc(OC)c(OC(F)(F)F)cc23)c2ccc(F)cc2OCCO)cc(S(C)(=O)=O)c1 (racemic) [Compound 11, 2-(4-fluoro-2-(2-hydroxyethoxy)phenyl)-2-((3-methoxy-5-(methyl-sulfonyl)phenyl)amino)-1-(6-methoxy-5-(trifluoromethoxy)-1H-indol-3-yl)ethanone] | 18400
COc1cc(NC(C(=O)c2c[nH]c3c(C)c(F)ccc23)c2ccc(F)cc2OCCO)cc(S(C)(=O)=O)c1 (racemic) [Compound 3, 2-(4-fluoro-2-(2-hydroxyethoxy)phenyl)-1-(6-fluoro-7-methyl-1H-indol-3-yl)-2-((3-methoxy-5-(methylsulfonyl)phenyl)amino)ethanone] | 4360
COc1cc(NC(C(=O)c2c[nH]c3cc(Cl)ccc23)c2ccc(F)cc2OCCO)cc(S(C)(=O)=O)c1 (racemic) [Compound 2, 1-(6-chloro-1H-indol-3-yl)-2-(4-fluoro-2-(2-hydroxyethoxy)phenyl)-2-((3-methoxy-5-(methylsulfonyl)phenyl)amino)-ethanone] | 7600
COc1cc(NC(C(=O)c2c[nH]c3c(C)cc(OC(F)(F)F)cc23)c2ccc(F)cc2OCCO)cc(S(C)(=O)=O)c1 (racemic) [Compound 12, 2-(4-fluoro-2-(2-hydroxyethoxy)phenyl)-2-((3-methoxy-5-(methylsulfonyl)phenyl)amino)-1-(7-methyl-5-(trifluoromethoxy)-1H-indol-3-yl)ethanone] | 16900
COc1cc(NC(C(=O)c2c[nH]c3cc(F)ccc23)c2ccc(F)cc2OCCO)cc(S(C)(=O)=O)c1 (racemic) [Compound 1, 1-(6-fluoro-1H-indol-3-yl)-2-(4-fluoro-2-(2-hydroxyethoxy)phenyl)-2-((3-methoxy-5-(methylsulfonyl)phenyl)amino)ethanone] | 3520
COc1cc(NC(C(=O)c2c[nH]c3cc(OC)c(C)cc23)c2ccc(F)cc2OCCO)cc(S(C)(=O)=O)c1 (racemic) [Compound 6, 2-(4-fluoro-2-(2-hydroxyethoxy)phenyl)-2-((3-methoxy-5-(methylsulfonyl)phenyl)amino)-1-(6-methoxy-5-methyl-1H-indol-3-yl)ethanone] | 4220
COc1cc(NC(C(=O)c2c[nH]c3c(C)cc(Cl)cc23)c2ccc(F)cc2OCCO)cc(S(C)(=O)=O)c1 (single isomer, unassigned) [Compound 9B, 1-(5-chloro-7-methyl-1H-indol-3-yl)-2-(4-fluoro-2-(2-hydroxyethoxy)phenyl)-2-((3-methoxy-5-(methylsulfonyl)phenyl)amino)ethanone] | 253
COc1cc(NC(C(=O)c2c[nH]c3cc(F)ccc23)c2ccc(F)cc2OCCO)cc(S(C)(=O)=O)c1 (single isomer, unassigned) [Compound 1B, 1-(6-fluoro-1H-indol-3-yl)-2-(4-fluoro-2-(2-hydroxyethoxy)phenyl)-2-((3-methoxy-5-(methylsulfonyl)phenyl)amino)ethanone] | 149
